Measurements: PMC11139879, “Structural insights into the DNA topoisomerase II of the African swine fever virus” (2023)

Target: African swine fever virus type II topoisomerase pP1192R, full-length (African swine fever virus) (UniProt Q00942)
Assay: cryo-EM structure

Substance: African swine fever virus type II topoisomerase pP1192R, full-length (from UniProt Q00942 1-1192) (enzyme)
- stoichiometry N: 2
